Results of unrelated studies side by side (data: NIAID ChemDB).

All rows: tests in culture; species: HIV-1

Blank or dashed fields: not listed here.

compound | strain or isolate | measure | conditions | cells | method | changes | value
NC(=O)c1c(N)n(COC(CO)CO)c2ncnc(N)c12 | - | EC50 | - | MT-2 + MT2 | cytopathic effect / XTT | - | >340 µM
Cc1nc(C)c([C@H](OC(C)(C)C)C(=O)O)c(N2CC[C@H]3CCCC[C@@H]3C2)c1-c1ccc(OCCc2ccc(F)cc2)cc1 | NL4-3 | EC50 | - | MT-2 | luciferase | - | <0.1 µM
O=c1[nH]cnc2c1ncn2[C@H]1C=C[C@@H](CO)O1 | LAV | EC50 | - | PBMC | RT activity | - | >100 µM
C[C@@H]1O[C@@H](OC[C@H]2O[C@@H](Oc3c(-c4ccc(OS(=O)(=O)O)c(OS(=O)(=O)O)c4)oc4cc(OS(=O)(=O)O)cc(OS(=O)(=O)O)c4c3=O)[C@H](OS(=O)(=O)O)[C@@H](OS(=O)(=O)O)[C@@H]2OS(=O)(=O)O)[C@H](OS(=O)(=O)O)[C@H](OS(=O)(=O)O)[C@H]1OS(=O)(=O)O | IIIB X4 | EC50 | - | C8166 | syncytia | - | 2.3 µM
CC(C)Nc1cccnc1N1CCN(C(=O)c2cc3cc4c(cc3[nH]2)OCO4)CC1 | IIIB | EC50 | - | HT4lacZ-1/IIIB + HT4 LacZ-1 | syncytia | - | 0.072 µM
Cc1nc(Nc2cc(F)ncc2F)c(-c2ccc(OCCc3ccc(F)cc3)cc2)c(N2CCC(C)(C)CC2)c1[C@H](OC(C)(C)C)C(=O)O | NL4-3 | EC50 | - | MT-2 | luciferase | - | 0.021 µM
CC(C)(C)NC(=O)[C@@H]1C[C@@H]2CCCC[C@@H]2CN1C[C@@H](O)[C@H](Cc1ccccc1)NC(=O)[C@H](CC(N)=O)NC(=O)c1ccc2ccccc2n1 | BR58 (PR L10I K20R M36I/V P63L/S L90M) | EC90 | - | PBMC | p24 | PR-L10I K20R M36I/V P63L/S L90M | 0.021 µM
COc1cc(/C=C/c2cc[n+]3c(c2)-c2c(c(C)c(C)c4c2-c2cc(/C=C/c5cc(OC)c(OC)cc5COc5ccccc5)cc[n+]2CC4)CC3)c(COc2ccccc2)cc1OC.O=S(=O)([O-])C(F)(F)F.O=S(=O)([O-])C(F)(F)F | NL4-3 | EC50 | - | MT-4 | visual reading / absorbance | - | 1.76 µM
CC1=C[C@]23C(=O)[C@@H](C=C(COC(=O)C(C)(C)C)[C@@H](O)[C@]2(O)[C@H]1OC(=O)C(C)(C)C)[C@H]1[C@@H](C[C@H]3C)C1(C)C | - | EC50 | - | MT-4 | cytopathic effect / MTT | - | 0.0033 µg/mL
C=C1C[C@@]23CCC4=C(C)C(=O)CC[C@@]4(C)[C@@H]2C[C@@H]1[C@@H](O)C3=O | NL4-3 | EC50 | - | MT-4 | luciferase / luminescence | - | >44 µM
CC(C)(C)NC(=O)[C@@H]1CN(Cc2cc(Br)cs2)CCN1C[C@@H](O)C[C@@H](Cc1cccnc1)C(=O)N[C@H]1c2ccccc2C[C@H]1O | IIIB | EC50 | - | H9 | p24 | - | <0.025 µM
Cc1ccc2nc(-c3ccc(NCCOCCOCCOCCOCCOCCO)cc3)sc2c1 | ADA | EC50 | - | CEM-M7 | luciferase | - | 6.6 µg/mL
N#Cc1c(Br)n([C@@H]2O[C@H](CO)[C@@H](O)[C@H]2O)c2ncnc(N)c12 | - | EC50 | - | MT-2 + MT2 | cytopathic effect / XTT | - | >100 µM
Cc1cn([C@H]2C[C@H](N=[N+]=[N-])[C@@H](CO)O2)c(=O)[nH]c1=O.O=C(O)P(=O)(O)O | IIIB | EC50 | - | MT-4 | p24 | - | 0.676 µM
Cc1cn([C@H]2C[C@H](N=[N+]=[N-])[C@@H](CO)O2)c(=O)[nH]c1=O | NL4-3 | EC50 | - | MAGIC-5A | β-galactosidase / absorbance | - | 0.029 µM
O=C(/C=C/c1ccc(O)cc1)NCCc1ccc(O)cc1 | MC99 deltaTAT/REV | EC50 | - | 1A2 | syncytia / β-galactosidase | - | <3.9 µg/mL
CC1(C)OC[C@@]2(C[C@]34CC[C@H]2C[C@H]3[C@]2(C)CC[C@H](O)C(C)(C)[C@H]2CC4)O1 | NL4-3 | EC50 | - | MT-4 | luciferase / luminescence | - | 34 µM
CC(C)(C)NC(=O)[C@@H]1CN(Cc2cccnc2)CCN1C[C@@H](O)C[C@@H](Cc1cccnc1)C(=O)N[C@H]1c2ccccc2C[C@H]1O | IIIB | EC95 | - | H9 | p24 | - | >0.2 µM
C#C[C@]1(CO)O[C@@H](n2cnc3c(N)nc(F)nc32)CC1O | NL4-3 | EC50 | - | MAGIC-5A | β-galactosidase / absorbance | M184V | 0.018 µM
CCNc1cccnc1N1CCN(C(=O)c2cc3cc4c(cc3[nH]2)OCO4)CC1 | IIIB | EC50 | - | HT4lacZ-1/IIIB + HT4 LacZ-1 | syncytia | - | 0.0098 µM
NC(=O)c1c(N)n(COCCO)c2ncnc(N)c12 | - | EC50 | - | MT-2 + MT2 | cytopathic effect / XTT | - | >380 µM
Cc1cn([C@H]2C[C@H](N=[N+]=[N-])[C@@H](CO)O2)c(=O)[nH]c1=O | IIIB | EC50 | - | MT-4 | cytopathic effect / MTT | - | 0.0059–0.017 µM
C1CNCCNCC(CCC2CNCCNCCCNCCNC2)CNCCNC1 | IIIB | EC50 | 4 d | MT-4 | cytopathic effect / MTT | - | 0.13 µM
N#Cc1c(N)n(COCCO)c2ncnc(N)c12 | - | EC50 | - | MT-2 + MT2 | cytopathic effect / XTT | - | >400 µM
CC(C)=CCC/C(C)=C/C[N+]1(C/C=C(\C)CCC=C(C)C)CCc2cc(O)c(O)cc2[C@H]1C | - | EC50 | - | H9 | MTT | - | >2.5 µg/mL
CCCCCCCCCCCC(=O)O[C@H]1C(C)=C[C@]23C(=O)[C@@H](C=C(CO)[C@@H](O)[C@]12O)[C@@H]1C(C)(C)[C@]1(OC(=O)CCCCCCCCCCC)C[C@H]3C | - | EC50 | - | MT-4 | cytopathic effect / MTT | - | 0.014 µg/mL
CC(C)OC(=O)OCOP(=O)(CO[C@H](C)Cn1cnc2c(N)ncnc21)OCOC(=O)OC(C)C | 96250 | EC50 | 7 d, clinical isolate | PBMC | XTT / p24 | - | 0.0004 µM
Cc1cn([C@H]2C[C@H](N=[N+]=[N-])[C@@H](CO)O2)c(=O)nc1N | LAV | EC50 | - | PBMC | RT activity | - | 0.081–0.22 µM
CC(C)Nc1cccnc1N1CCN(C(=O)c2cc3cc(N)ccc3[nH]2)CC1 | D34 | EC50 | - | PBMC | p24 | - | 0.055 µM
Cc1cn([C@H]2C[C@H](N=[N+]=[N-])[C@@H](CO)O2)c(=O)[nH]c1=O | - | EC50 | - | - | - | - | 0.0005 µg/mL
Cc1ccnc2c1NC(=O)c1cccnc1N2C1CC1 | - | EC50 | - | MT-4 | - | RT-D67N K70R T215Y K219Q Y181C | >3 µM
[N-]=[N+]=N[C@H]1C[C@H](n2cc(/C=C/c3ccccc3)c(=O)[nH]c2=O)O[C@@H]1CO | - | EC50 | - | MOLT-4 | - | - | 5 µg/mL
C1CNCCNCCNCCN1 | IIIB | EC50 | - | MT-4 | cytopathic effect / MTT | - | >20 µM
Cc1cn([C@H]2CC[C@@H](CO)O2)c(=O)[nH]c1=O.O=C(O)P(=O)(O)O | IIIB | EC50 | - | MT-4 | p24 | - | 5 µM
CC(C)(C)NC(=O)[C@@H]1CN(Cc2cc(Br)cs2)CCN1C[C@@H](O)C[C@@H](Cc1ccncc1)C(=O)N[C@H]1c2ccccc2C[C@H]1O | IIIB | EC50 | - | H9 | p24 | - | <0.012 µM
Cc1cc(C)cc(C(=O)c2cc(Cl)ccc2OCCN2C(=O)NC(=O)C(C)C2C)c1 | - | EC50 | pseudotyped | - | RT activity | Y181C | 0.6 µM
N#Cc1c(N)n(COC(CO)CO)c2ncnc(N)c12 | - | EC50 | - | MT-2 + MT2 | cytopathic effect / XTT | - | 360 µM
CCOCn1c([Se]c2ccccc2)c(F)c(=O)[nH]c1=O | LAV | EC50 | - | PBMC | RT activity | - | 18.2 µM
C/C(=C(/CCO)SS/C(CCO)=C(\C)N(C=O)Cc1cnc(C)nc1N)N(C=O)Cc1cnc(C)nc1N | MN | EC50 | - | H9/HIV-1(MN) + H9 | p24 | - | <500 µM
CCCCCCCCCCCC(=O)O[C@@]12C[C@@H](C)[C@]34C=C(C)[C@H](O)[C@@]3(O)[C@H](O)C(COC(=O)C(C)(C)C)=C[C@H](C4=O)[C@@H]1C2(C)C | - | EC50 | - | MT-4 | cytopathic effect / MTT | - | 0.00071 µg/mL
Cc1cn([C@H]2C=C[C@@H](CO)O2)c(=O)[nH]c1=O | LAV | EC50 | - | PBMC | RT activity | - | 0.009 µM
Cc1ncc(-c2ccccc2F)c(N2CCC(C)(C)CC2)c1[C@H](OC(C)(C)C)C(=O)O | NL4-3 | EC50 | - | MT-2 | luciferase | - | 0.01 µM
C(CCC1CNCCNCCCNCCNC1)CCC1CNCCNCCCNCCNC1 | RF | EC50 | 5 d | MT-4 | cytopathic effect / MTT | - | 0.35 µM
CCCN(C)C(=O)Oc1nsnc1-c1c(Cl)ccc(N)c1Cl | IIIB | EC50 | - | MAGI | MTT | RT-E138K | 0.047 µM
N#Cc1c(Br)n(COCCO)c2ncnc(N)c12 | - | EC50 | - | MT-2 + MT2 | cytopathic effect / XTT | - | >100 µM
O=S(=O)(O)c1cc(S(=O)(=O)O)c2c(Nc3ccnc4cc(Cl)ccc34)ccc(S(=O)(=O)O)c2c1 | - | EC50 | - | - | - | - | 1000 µg/mL
Nc1ccn([C@H]2CC[C@@H](CO)O2)c(=O)n1 | CC | EC50 | - | C8166 | cytopathic effect / MTT | - | 1.54 µM
CO[C@H]1[C@H]2[C@@H]([C@@H](OC(C)=O)[C@@H](C)C(=O)[C@@]34C[C@H](C)[C@H](O)[C@]3(/C=C(\C)[C@H]1O)O4)C2(C)C | NL4-3 | EC50 | - | MT-4 | luciferase / luminescence | - | >44 µM
Nc1ncnc2c1ncn2[C@H]1CC[C@@H](CO)O1 | LAV | EC50 | - | PBMC | RT activity | - | 0.91 µM
COc1c2ccccc2c(OC)c2c(C)cc(=O)[nH]c12 | MC99 deltaTAT/REV | EC50 | - | 1A2 | syncytia / β-galactosidase | - | 7.3 µg/mL
O=S(=O)(O)OCC1OC2OC3C(COS(=O)(=O)O)OC(OC4C(COS(=O)(=O)O)OC(OC5C(COS(=O)(=O)O)OC(OC6C(COS(=O)(=O)O)OC(OC7C(COS(=O)(=O)O)OC(OC8C(COS(=O)(=O)O)OC(OC1C(OS(=O)(=O)O)C2OS(=O)(=O)O)C(OS(=O)(=O)O)C8OS(=O)(=O)O)C(OS(=O)(=O)O)C7OS(=O)(=O)O)C(OS(=O)(=O)O)C6OS(=O)(=O)O)C(OS(=O)(=O)O)C5OS(=O)(=O)O)C(OS(=O)(=O)O)C4OS(=O)(=O)O)C(OS(=O)(=O)O)C3OS(=O)(=O)O | IIIB | EC50 | - | MT-4 | cytopathic effect / trypan blue | - | 10.5 µg/mL
CCCCCCC#CC#CCCCCCCCCCCCCCc1ccco1 | MC99 deltaTAT/REV | EC50 | - | 1A2 | syncytia / β-galactosidase | - | 43.3 µg/mL
C1CNCCNCC(CCCC2CNCCNCCCNCCNC2)CNCCNC1 | IIIB | EC50 | 4 d | MT-4 | cytopathic effect / MTT | - | 0.08 µM
O=C1CCN(CCOc2ccc(Cl)cc2C(=O)c2cc(Cl)cc(Cl)c2)C(=O)N1 | - | EC50 | pseudotyped | - | RT activity | K103N | 3.1 µM
Cc1nc(N)c(-c2ccc(OCCc3ccc(F)cc3)c(F)c2F)c(N2CCC(C)(C)CC2)c1[C@H](OC(C)(C)C)C(=O)O | NL4-3 | EC50 | - | MT-2 | luciferase | - | 0.002 µM
Nc1ncnc2c1ncn2[C@H]1C=C[C@@H](CO)O1 | LAV | EC50 | - | PBMC | RT activity | - | 0.76 µM
CC1=C[C@]23C(=O)[C@@H](C=C(COC(=O)C(C)(C)C)[C@@H](O)[C@]2(O)[C@H]1O)[C@H]1[C@@H](C[C@H]3C)C1(C)C | - | EC50 | - | MT-4 | cytopathic effect / MTT | - | 0.013 µg/mL
CC(C)(C)NC(=O)[C@@H]1CN(Cc2cc3sccc3s2)CCN1C[C@@H](O)C[C@@H](Cc1ccncc1)C(=O)N[C@H]1c2ccccc2C[C@H]1O | IIIB | EC50 | - | H9 | p24 | - | <0.006 µM
CCOCn1c([Se]c2ccccc2)cc(=O)[nH]c1=O | LAV | EC50 | - | PBMC | RT activity | - | 36 µM

The last 5 rows once more:

{"compound": "Cc1nc(N)c(-c2ccc(OCCc3ccc(F)cc3)c(F)c2F)c(N2CCC(C)(C)CC2)c1[C@H](OC(C)(C)C)C(=O)O", "strain or isolate": "NL4-3", "measure": "EC50", "cells": "MT-2", "method": "luciferase", "value": "0.002 µM"}
{"compound": "Nc1ncnc2c1ncn2[C@H]1C=C[C@@H](CO)O1", "strain or isolate": "LAV", "measure": "EC50", "cells": "PBMC", "method": "RT activity", "value": "0.76 µM"}
{"compound": "CC1=C[C@]23C(=O)[C@@H](C=C(COC(=O)C(C)(C)C)[C@@H](O)[C@]2(O)[C@H]1O)[C@H]1[C@@H](C[C@H]3C)C1(C)C", "measure": "EC50", "cells": "MT-4", "method": "cytopathic effect / MTT", "value": "0.013 µg/mL"}
{"compound": "CC(C)(C)NC(=O)[C@@H]1CN(Cc2cc3sccc3s2)CCN1C[C@@H](O)C[C@@H](Cc1ccncc1)C(=O)N[C@H]1c2ccccc2C[C@H]1O", "strain or isolate": "IIIB", "measure": "EC50", "cells": "H9", "method": "p24", "value": "<0.006 µM"}
{"compound": "CCOCn1c([Se]c2ccccc2)cc(=O)[nH]c1=O", "strain or isolate": "LAV", "measure": "EC50", "cells": "PBMC", "method": "RT activity", "value": "36 µM"}

ECn is the concentration giving n% inhibition of infection, replication or growth. Two numbers with a dash give a range or band. Neighbouring rows are from separate reports.